Anti-infective test results gathered from many reports (values: NIAID ChemDB through PubChem).

Shared fields: growth or infection tests; species: Mycobacterium tuberculosis

MIC bound comes from a single tested concentration. Rows are shuffled and stem from different studies. Blank or dashed fields: not listed here. ECn is the concentration giving n% inhibition of infection, replication or growth. Inhibition is in % at the dose shown (toxicity tests: loss of growth or viability). MIC50, MIC90 and the like: level of inhibition, or share of isolates inhibited. Two numbers with a dash give a range or band.

compound | cell line | strain | method | read-out | dose | setting | value
COC1=C(OC)C(=O)C(Sc2ccccc2)=C(CO)C1=O |  | H37Rv | resazurin | MIC bound |  |  | >6.25 µg/mL
O=C(COc1cnccn1)N/N=C1\SCC(=O)N1c1ccc(Cl)cc1Cl |  | H37Rv |  | MIC |  |  | 154 µg/mL
Cc1ccc2oc(=S)n(-c3ccc(Cl)cc3)c(=S)c2c1 |  | My 331/88 |  | MIC |  | 21 d | 1 µM
O=C(/C=C/C(=O)c1ccccc1)NC[C@H]1CN(c2ccc(N3CCOCC3)c(F)c2)C(=O)O1 |  | 10 clinical isolates resistant |  | MIC |  |  | >16 µg/mL
NNC(=O)c1ccncc1 |  | Strain 158 |  | MIC |  |  | 0.06 µg/mL
CO[C@H]1/C=C/O[C@@]2(C)Oc3c(C)c(O)c4c(O)c(c(/C=N/N5CCN(C)CC5)c(O)c4c3C2=O)NC(=O)/C(C)=C\C=C\[C@H](C)[C@H](O)[C@@H](C)[C@@H](O)[C@@H](C)[C@H](OC(C)=O)[C@@H]1C |  | H37Rv (rifampicin-resistant) |  | MIC |  |  | >40 µg/mL
Cc1[nH]nc(-c2cccnc2)c1N=NN(C)C |  | H37Rv | resazurin | MIC |  |  | 0.78 µg/mL
O=c1oc2ccc(Br)cc2cc1-c1cs/c(=N/N=C/c2ccc(Cl)cc2)n1C1CCCCC1 |  | H37Rv |  | inhibition | 12.5 µg/mL |  | 40%
COc1ccc2c(=O)n(-c3ccc(C#N)cc3)c(=O)oc2c1 |  | CNCTC MY331/88 |  | MIC |  |  | 32 µM
CCCCCC(C)NCCNCc1ccccc1Sc1ccccc1CO |  |  |  | MIC |  |  | 50 µM
CNC(=O)c1ccc(/C=C/c2c[nH]c3ccccc23)[n+](C)c1.[I-] |  | H37Rv | BACTEC | MIC |  |  | ≥12.5 µg/mL
CO[C@H]1/C=C/O[C@@]2(C)Oc3c(C)c(O)c4c(O)c(c(/C=N/N5CCN(C/C=C/c6ccccc6)CC5)c(O)c4c3C2=O)NC(=O)/C(C)=C\C=C\[C@H](C)[C@H](O)[C@@H](C)[C@@H](O)[C@@H](C)[C@H](OC(C)=O)[C@@H]1C |  | MTB31 (MDR) |  | MIC |  |  | >8 µg/mL
O=c1oc2ccc(Cl)cc2c(=O)n1-c1cccc(Cl)c1 |  | CNCTC MY331/88 |  | MIC |  |  | 8 µM
CC(CNCC(c1ccccc1)c1ccccc1)NCC12CC3CC(CC(C3)C1)C2 |  |  |  | MIC |  |  | 25 µM
O=C(COc1cnccn1)NNC(=S)Nc1ccc(Cl)cc1 |  | H37Rv |  | MIC |  |  | 74 µg/mL
Cn1nc(NC(=O)Nc2cc(C(=O)O)n(C)n2)cc1C(=O)O |  | H37Rv | resazurin | inhibition | 6.25 µg/mL |  | -4%
S=c1oc2ccc(Br)cc2c(=S)n1-c1ccc(Br)cc1 |  | My 331/88 |  | MIC |  | 21 d | 2 µM
CCN(CC)c1cc2c(cc1C)nc1cc(C)c(=[N+]=Nc3ccc(N(C)C)cc3)cc-1n2-c1ccccc1 |  | H37Rv | BACTEC | MIC |  |  | 1.6 µg/mL
Clc1ccc(-c2c(C(c3ccccc3)n3ccnc3)cnn2-c2ccccc2)cc1 |  | ATCC 35837 (ethambutol-resistant) |  | MIC50 |  |  | ≥100 µM
COC(=O)C[C@]1(C(=O)OC)[C@@H](C(=O)OC)C(C(=O)OC)N(C(C)=O)N1C |  | H37Rv | BACTEC | MIC bound |  |  | >12.5 µg/mL
C/C(=N\NC(=O)c1ccncc1)c1cccc(F)c1 |  | H37Rv |  | MIC |  |  | >20 µg/mL
O=c1oc2ccc([N+](=O)[O-])cc2c(=O)n1-c1ccc(Cl)c(Cl)c1 |  | CNCTC MY331/88 |  | MIC |  |  | 31 µM
CCCCC(CC)CN1CN(CC(CC)CCCC)CC(C)(NCCNC2CCCC(C)C2C)C1 |  |  |  | MIC |  |  | 50 µM
Cc1c(N=Nc2cc(N=Nc3ccc(N=Nc4ccc(O)c(C(=O)O)c4)cc3)c(N)cc2N)cccc1S(=O)(=O)O |  | H37Rv | BACTEC | inhibition | 6.25 µg/mL |  | 0%
Clc1ccc(-n2ncc(C(c3ccccc3)n3ccnc3)c2-c2ccccc2)cc1 |  | ATCC 35822 (isoniazid-resistant) |  | MIC90 |  |  | ≥100 µM
O=c1oc2ccc([N+](=O)[O-])cc2c(=O)n1-c1cccc([N+](=O)[O-])c1 |  | CNCTC MY331/88 |  | MIC |  |  | 62 µM
CC(NNC(=O)c1ccncc1)c1ccc(Cl)c(Cl)c1 |  | Ethambutol-resistant |  | MIC |  |  | ≤0.78 µg/mL
CCN(CC)C(=S)[S][Bi]([S]C(=S)N(CC)CC)[S]C(=S)N(CC)CC |  | RMP-R |  | MIC |  |  | 1.6 µg/mL
CCn1c(-c2cc3cc(Br)ccc3oc2=O)cs/c1=N\N=C\c1cc(Br)ccc1O |  | H37Rv |  | inhibition | 12.5 µg/mL |  | 81%
Cc1cccc(Nc2nnc3nc(-c4ccccc4)c(-c4ccccc4)nn23)c1 |  | H37Rv | BACTEC | inhibition | 12.5 µg/mL |  | 46%
O=c1oc2ccc(F)cc2c(=S)n1-c1ccc(Br)cc1 |  | My 331/88 |  | MIC |  | 21 d | 2 µM
C/C(=N\NC(=O)c1ccncc1)c1ccccc1F | Macrophages | Erdman | colony count | EC50 |  | inside macrophages | <0.081 µg/mL
CCCCn1c(-c2ccc(F)cc2)cs/c1=N\NC(=O)COc1cnccn1 |  | H37Rv |  | MIC |  |  | 7.6 µg/mL
CC1COc2c(N3CCN(C)CC3)c(F)cc3c(=O)c(C(=O)O)cn1c23 |  | ATCC 35837 (ethambutol-resistant) |  | MIC90 |  |  | 2.9 µM
CC(=O)Nc1ccc(C(=O)CCC(=O)NC[C@H]2CN(c3ccc(-n4cncn4)c(F)c3)C(=O)O2)cc1 |  | ATCC 27294 |  | MIC |  |  | 2 µg/mL
COc1ccc(/C(C)=N/NC(=O)c2ccncc2)c(OC)c1 |  | 6 PI |  | MIC |  |  | >20 µg/mL
CO[C@H]1/C=C/O[C@@]2(C)Oc3c(C)c(O)c4c(O)c(c(/C=N/N5CCN(C)CC5)c(O)c4c3C2=O)NC(=O)/C(C)=C\C=C\[C@H](C)[C@H](O)[C@@H](C)[C@@H](O)[C@@H](C)[C@H](OC(C)=O)[C@@H]1C |  | 9127 |  | MIC |  |  | ≥2 µg/mL
NC(=O)N(CCCO)/N=C/c1ccc([N+](=O)[O-])o1 |  | H37Rv | BACTEC | inhibition | 12.5 µg/mL |  | 7%
CC1(C)[C@H]2CC[C@@H](CNCCNC34CC5CC(CC(C5)C3)C4)[C@@H]1C2 |  |  |  | MIC |  |  | 12.5 µM
C=CCn1c(-c2cc3cc(Br)ccc3oc2=O)cs/c1=N\N=C\c1cc(Br)ccc1O |  | H37Rv |  | EC50 |  |  | <12.5 µg/mL
C=C(C)C(=O)O[C@H]1C/C(CO)=C\[C@H](O)C/C(C)=C\[C@@H]2OC(=O)C(=C)[C@H]21 |  | H37Rv | BACTEC | MIC |  |  | ≥12.5 µg/mL
CC(NNC(=O)c1ccncc1)c1ccc(F)cc1 |  | H37Rv (rifampin-resistant) |  | MIC |  |  | 1.96 µg/mL
CC1COc2c(N3CCN(C)CC3)c(F)cc3c(=O)c(C(=O)O)cn1c23 |  | 206 isolates (susceptible) |  | MIC50 |  |  | 1 µg/mL
CCN(CC)N1C(=O)[N+](CC)(CC)N=C1[O-] |  | H37Rv | BACTEC | MIC bound |  |  | >12.8 µg/mL
C[C@H]1COc2c(N3CCN(C)CC3)c(F)cc3c(=O)c(C(=O)O)cn1c23 |  | 3S |  | MIC |  |  | 0.5 µg/mL
NC(=O)c1cnccn1 |  | Isolate K10551 |  | MIC |  |  | >500 µg/mL
Fc1cccc(-n2c(=S)oc3ccc(F)cc3c2=S)c1 |  | My 331/88 |  | MIC |  | 21 d | 16 µM
CC(=O)NC[C@H]1CN(c2ccc(N3CCOCC3)c(F)c2)C(=O)O1 |  | 6R |  | MIC |  |  | 0.5 µg/mL
COc1ccc2oc(=S)n(-c3ccc(Cl)c(Cl)c3)c(=S)c2c1 |  | My 331/88 |  | MIC |  | 21 d | 32 µM
C/C(=N\NC(=O)c1ccncc1)c1ccc(F)cc1 | Macrophages | Erdman | colony count | EC50 |  | inside macrophages | <0.038 µg/mL
COc1c(N2CCNC(C)C2)c(F)cc2c(=O)c(C(=O)O)cn(C3CC3)c12 |  | Strain 35 |  | MIC |  |  | 8 µg/mL
COc1ccc(-c2cs/c(=N\NC(=O)COc3cnccn3)n2-c2ccc(Cl)cc2)cc1 |  | H37Rv |  | MIC |  |  | 16 µg/mL
COc1ccc(CCNCCNCCc2ccc(Cl)cc2Cl)cc1OC |  |  |  | MIC |  |  | 50 µM
Cc1cc(O)c(C(c2ccc(N(C)C)cc2Cl)c2c(O)cc(C)[nH]c2=O)c(=O)[nH]1 |  | H37Rv | BACTEC | inhibition | 12.5 µg/mL |  | 15%
O=c1oc2ccc(Br)cc2c(=S)n1-c1cccc(F)c1 |  | My 331/88 |  | MIC |  | 14 d | 2 µM
CO/C(=N\N=C\c1cccc(F)c1)c1ccncc1 |  | 16PI |  | MIC |  |  | >20 µg/mL
Fc1ccc(-c2c(C(c3ccccc3)n3ccnc3)cnn2-c2ccc(F)cc2)cc1 |  | ATCC 27294 |  | MIC90 |  |  | ≥100 µM
C/C(=N\NC(=O)c1ccncc1)c1cccc(Cl)c1 |  | 6 PI |  | MIC |  |  | >20 µg/mL
O=C(N=Nc1c(Cl)c(O)c2ccccc2c1O)c1ccccc1O |  | H37Rv | BACTEC | inhibition | 12.5 µg/mL |  | 100%
CC(NCCNCCc1ccccc1Cl)c1cccc2ccccc12 |  |  |  | MIC |  |  | 25 µM
COc1ccc(OC)c(N=Nc2sc(N)nc2C)c1 |  | H37Rv | BACTEC | MIC bound |  |  | >12.5 µg/mL
O=C(CCC(=O)c1ccc(F)cc1F)NC[C@H]1CN(c2ccc(N3CCOCC3)c(F)c2)C(=O)O1 |  | 10 clinical isolates sensitive |  | MIC |  |  | 1–4 µg/mL
CN[C@@H]1[C@H](O[C@H]2[C@H](O[C@H]3[C@H](O)[C@@H](O)[C@H](N=C(N)N)[C@@H](O)[C@@H]3N=C(N)N)O[C@@H](C)[C@]2(O)C=O)O[C@@H](CO)[C@H](O)[C@H]1O |  | 29197 |  | MIC |  |  | <2 µg/mL
CN[C@@H]1[C@H](O[C@H]2[C@H](O[C@H]3[C@H](O)[C@@H](O)[C@H](N=C(N)N)[C@@H](O)[C@@H]3N=C(N)N)O[C@@H](C)[C@]2(O)C=O)O[C@@H](CO)[C@H](O)[C@H]1O |  | ATCC 35837 (ethambutol-resistant) |  | MIC90 |  |  | 0.3 µM
O=C(/C=C/C(=O)c1ccccc1)NC[C@H]1CN(c2ccc(N3CCCCC3)c(F)c2)C(=O)O1 |  | ATCC 27294 |  | MIC |  |  | >16 µg/mL
N[C@H](C(=O)O)[C@H]1ON=C(Cl)[C@@H]1O |  | ETA-R |  | MIC |  |  | 12.5 µg/mL
Fc1ccccc1-n1ncc(C(c2ccccc2)n2ccnc2)c1-c1ccccc1 |  | ATCC 35828 (pyrazinamide-resistant) |  | MIC50 |  |  | ≥100 µM
Cc1cc(NS(=O)(=O)c2ccc(N=Nc3c(O)n(-c4ccccc4)n(-c4ccccc4)c3=O)cc2)no1 |  | H37Rv | BACTEC | MIC |  |  | ≥12.8 µg/mL
COc1ccccc1CCNCCNC[C@]1(C)CCC[C@]2(C)c3ccc(C(C)C)cc3CC[C@@H]12 |  |  |  | MIC |  |  | 25 µM
CO[C@H]1/C=C/O[C@@]2(C)Oc3c(C)c(O)c4c(O)c(c(/C=N/N5CCN(C)CC5)c(O)c4c3C2=O)NC(=O)/C(C)=C\C=C\[C@H](C)[C@H](O)[C@@H](C)[C@@H](O)[C@@H](C)[C@H](OC(C)=O)[C@@H]1C |  | ATCC 27294 |  | MIC50 |  |  | 0.1 µM
CCCCNC(=S)SSSSC(=S)NCCCC |  | H37Rv | resazurin | MIC |  |  | 1.56 µg/mL
FC(F)(F)c1ccc(CNCCNCC23CC4CC(CC(C4)C2)C3)cc1 |  |  |  | MIC |  |  | 25 µM
CC(C)n1c(-c2ccccc2)cs/c1=N\NC(=O)COc1cnccn1 |  | H37Rv |  | MIC |  |  | 18 µg/mL
Clc1ccc(-c2c(C(c3ccccc3)n3ccnc3)cnn2-c2ccc(Cl)cc2Cl)cc1 |  | ATCC 35822 (isoniazid-resistant) |  | MIC90 |  |  | >100 µM
CC(=O)OC1=C2C(C[C@H]3[C@@H]4CC=C5C[C@@H](OC(C)=O)CC[C@]5(C)[C@H]4CC[C@]23C)C(C(=O)NCc2ccccc2)C(C(=O)O)C1 |  | H37Rv | resazurin | inhibition | 6.25 µg/mL |  | 24%
O=C(N/N=C/c1ccccc1F)c1ccncc1 |  | Rifampicin-resistant |  | MBC |  |  | 0.4 µg/mL
C[C@H]1COc2c(N3CCN(C)CC3)c(F)cc3c(=O)c(C(=O)O)cn1c23 |  | 250 isolates |  | MIC50 |  |  | 0.5 µg/mL
COc1ccc2oc(=O)n(-c3ccc(Br)cc3)c(=S)c2c1 |  | My 331/88 |  | MIC |  | 21 d | 32 µM
CCCCn1c(-c2cc3cc(Br)ccc3oc2=O)cs/c1=N\N=C\c1ccc(Cl)cc1 |  | H37Rv |  | EC50 |  |  | <12.5 µg/mL
Fc1ccc(-c2c(C(c3ccccc3)n3ccnc3)cnn2-c2ccc(F)cc2F)cc1 |  | ATCC 35837 (ethambutol-resistant) |  | MIC50 |  |  | ≥100 µM
Cc1[nH]n(-c2nc(-c3ccccc3)cc(=O)[nH]2)c(=O)c1CCO |  | H37Rv | resazurin | MIC bound |  |  | >6.25 µg/mL
O=C(NNCc1ccccc1)c1ccncc1 |  | Rifampicin-resistant |  | MBC |  |  | 1.56 µg/mL

For reference, 5 entries again:

compound	cell line	strain	method	read-out	dose	setting	value
O=C(CCC(=O)c1ccc(F)cc1F)NC[C@H]1CN(c2ccc(N3CCOCC3)c(F)c2)C(=O)O1		10 clinical isolates sensitive		MIC			1–4 µg/mL
CCCCC(CC)CN1CN(CC(CC)CCCC)CC(C)(NCCNC2CCCC(C)C2C)C1				MIC			50 µM
CC(=O)OC1=C2C(C[C@H]3[C@@H]4CC=C5C[C@@H](OC(C)=O)CC[C@]5(C)[C@H]4CC[C@]23C)C(C(=O)NCc2ccccc2)C(C(=O)O)C1		H37Rv	resazurin	inhibition	6.25 µg/mL		24%
O=C(NNCc1ccccc1)c1ccncc1		Rifampicin-resistant		MBC			1.56 µg/mL
C=CCn1c(-c2cc3cc(Br)ccc3oc2=O)cs/c1=N\N=C\c1cc(Br)ccc1O		H37Rv		EC50			<12.5 µg/mL